Results deposited as PubChem BioAssay AID1224833 (University of Georgia, 2016).

Test: 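Host factors restraining rotavirus as candidate antiviral genes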 (primary screen)
Cells: monkey MA104 kidney cells
Reagent: siRNA pool against human genes, 50 nM
Duration: 48 h knock-down before infection; read 24 h after infection
Treatment: infection with rotavirus strain RV3 two days after transfection; infectious dose for this stage not given
Measurement: 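z-score of rotavirus antigen signal per well, from a fluorescent immunoassay, relative to non-targeting control wells on the same plate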
Scale: z-score vs non-targeting control: higher = more rotavirus replication than with non-targeting control
Call rule: In these data the active calls have z-score vs non-targeting control at about -1 or lower, or at about 1 or higher
Calls: active = z-score beyond 1 either way; inactive = z-score within 1 of zero
Shown is one part, drawn at random, of about 12,000 reagents tested. About 5,600 of them (46%) count as active. 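Active calls cover z-scores past 1 in both directions, so they include lowered as well as raised rotavirus replication.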 Entries without a mark were called inactive.

target | z-score vs non-targeting control
KIAA0319L | -0.427
RFC2 | -1.18 (active)
LRRIQ1 | -0.147
FPGT | 0.933
CCDC144NL | 1.14 (active)
KLF9 | 1.38 (active)
POLD3 | -1.46 (active)
CCNDBP1 | -1.65 (active)
UGT2B28 | -2.07 (active)
PSAPL1 | 0.591
ZFYVE9 | -0.634
SNPH | 0.612
OR2T11 | -0.758
MRNIP | 1.24 (active)
SCAI | 0.606
GAB3 | 0.579
TREM2 | 0.988
RGS6 | 2.78 (active)
CAPZB | -0.27
GRHL1 | -0.684
ZNF154 | -1.15 (active)
FAM110A | 0.0843
ATP8B1 | -2.5 (active)
TMPRSS11F | 1.48 (active)
KHSRP | -3.85 (active)
RPL11 | -5.82 (active)
ARHGAP33 | -0.883
BIK | -1.88 (active)
SLC26A11 | -1.99 (active)
MTDH | -0.498
SENP1 | 1.96 (active)
SLC6A16 | -0.81
NGB | 0.808
SELENOW | 0.287
CSDC2 | 1.42 (active)
OR52N4 | 1.19 (active)
NANP | -1.66 (active)
TOR1AIP1 | -0.459
C16orf90 | 0.898
SNX24 | -2.79 (active)
FRRS1 | 1.22 (active)
SEL1L | -1.72 (active)
FAM120A | 1.75 (active)
GTPBP10 | 1.02 (active)
TNNI3 | -0.552

3 of these entries in another layout.
target,z-score vs non-targeting control
POLD3,-1.46 (active)
CCNDBP1,-1.65 (active)
UGT2B28,-2.07 (active)
